## Screening data, single-dose tests

Source: ChEMBL document CHEMBL3988442, “University of Dundee, Small-Polar-MMV Screening Library” (2021).

Results are given as percent effect.
The controls that fix the scale are not given in the record; negative values are as filed.
Many other results are left out here, so strong results are more common than in the screen.

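Phenotypic screen: M. tuberculosis growth, glucose 7H9 medium, 3 days; the read-out is not stated. Concentration: 500 µM. Higher reads as more growth inhibition (inferred: compounds with an IC50 in retests scored well above the rest). About 18,000 compounds were tested under these conditions; 7.9% (about 1,400) showed 50% or more at least once.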

* CN(CCOc1ccc(Cl)cc1)S(C)(=O)=O : 77.19%
* CCOC(=O)CNS(=O)(=O)c1c(C)ccc2nsnc12 : 21.85%
* CCOc1cccc(CS(=O)(=O)Cc2ccnn2C)n1 : 12.98%
* CC1(C(=O)NCCOC(N)=O)CCCc2ccccc21 (stereo not given) : 5.771%
* COCC(N)C1CCOCC1 (stereo not given) : 3.955%
* Cc1cc(C)c(C#N)c(N2C[C@H](C3CC3)[C@@H](N)C2)n1 : 79.47%
* N#CCCN1CCCN(c2ccc(C#N)cc2)CC1 : 59.39%
* Cc1ccc(C(C)N(C)C(=O)c2cccnc2O)s1 (stereo not given) : 21.17%
* Cc1cnccc1CNC(=O)CSCCN1CCCC1 : 12.1%
* NC(=O)c1ncccc1CO : -7.971%
* Cc1c(Br)cccc1C(=O)N(C)CCNS(C)(=O)=O : 22.5%
* NC(=O)c1noc2c1CCCC2 : -1.738%
* OCC1CCCN1c1ncnc2ccc(F)cc12 (stereo not given) : -2.222%
* CN(C)C1(CN)Cc2ccccc2C1 : 54.85%
* O=C(NCC1CCNCC1)Nc1nncs1 : -0.7878%
* CCOC(C)(C)CNC(=O)NCc1ccncc1 : -7.084%
* CN1CCO[C@@H]2CCNC[C@@H]21 : -5.418%
* COC(=O)c1cc(N2C(=O)C=CC2=O)ccc1Cl : 0.1205%
* CC(=O)c1ccc(C(=O)NC(C)c2nc(C)c[nH]2)s1 (stereo not given) : -2.637%
* CC(C)N(C)S(=O)(=O)NCCCN(C)c1ccccc1 : 79.04%
* c1ccc(-c2noc(CN3CCCC3)n2)cc1 : 72.52%
* Clc1cccc2nc(N3CCNCC3)oc12 : 53.39%
* O=C1CN(c2ncnc3c2cnn3CCO)CCN1 : -1.717%
* COc1ccc(-c2nc(CCN)co2)cc1 : 82.39%
* c1csc(CNCCCn2ccnc2)c1 : -0.08727%
* CC(=O)N(C)C1CCN(Cc2cccc(F)c2)CC1 : 5.571%
* Cc1noc(C)c1CN1CCn2ccnc2C1 : 4.477%
* CC(C(N)=O)n1cccn1 (stereo not given) : 10.48%
* COCC1CCN(C(=O)C(CN)CC(C)C)CC1 (stereo not given) : 12.94%
* CCn1cnnc1CNC(=O)N1CCN(C)CC1C (stereo not given) : -0.774%
* NCCCOC1CCN(C(=O)Cc2ccsc2)CC1 : 24.66%
* Cc1cccc(NC(=O)Cn2cnnn2)c1 : 3.502%
* CCN(CCn1cccn1)C(=O)[C@H](N)c1ccccc1 : 14.38%
* CCc1nnsc1C(=O)N1CCN(c2nccs2)CC1 : -3.64%
* Nc1n[nH]c(SCC(=O)N2CCc3sccc3C2)n1 : 23.58%
* CSCC(=O)Nc1ccc(N2C(=O)CCCC2=O)cc1 : 5.205%
* CN(C)S(=O)(=O)NCc1ccccc1CO : 18.03%
* CCN(CC)c1ccc(CN)cc1F : -16.17%
* CCOC(=O)c1nnn(-c2ccc(F)cc2)c1C : 20.81%
* NC(=O)C(OC(=O)CCc1ccc(F)cc1)C1CC1 (stereo not given) : 43.48%
* OC(Cc1ccncc1)C(F)(F)F (stereo not given) : -0.3537%
* CN(CCNC(=O)c1cc[nH]n1)Cc1ccccc1 : 11.26%
* N[C@H]1CN(S(=O)(=O)c2cccc(Cl)c2)C[C@@H]1C1CC1 : 71.14%
* NC(=O)c1ccc(CNS(=O)(=O)N2CCOCC2)cc1 : 0.3233%
* COC(=O)Nc1ccc(C(=O)N2CCCC2)cc1 : -13.76%
* Cc1ccc(NC(=O)CN(C)CC(=O)N(C)C)cc1C : 40.34%
* CCc1ccccc1NC(=O)CSCC(N)=O : 17.07%
* CCOc1ncccc1CNC(=O)c1sc(C)nc1C : 27.72%
* Cn1ncc(Sc2nc3ncccn3n2)c(Br)c1=O : 10.65%
* COCCCNC(=O)CC1Nc2ccccc2NC1=O (stereo not given) : 23.1%
* CCN(CC1CCOC1)C(=O)c1cc(I)c[nH]1 (stereo not given) : 71.11%
* CCCOC1CCCNC1 (stereo not given) : 5.938%
* CC(C)=CCO[C@H]1CCOC[C@H]1NC(=O)c1cnc[nH]1 : -2.511%
* NS(=O)(=O)C1CCN(Cc2ccc(Br)c(F)c2)C1 (stereo not given) : 58.15%
* Cc1c(C(=O)N(CC2CCOC2)C2CC2)cnn1C (stereo not given) : -11.38%

For reference, 7 entries once more:

- CCc1nnsc1C(=O)N1CCN(c2nccs2)CC1 : -3.64%
- Cc1c(C(=O)N(CC2CCOC2)C2CC2)cnn1C (stereo not given) : -11.38%
- CN(CCNC(=O)c1cc[nH]n1)Cc1ccccc1 : 11.26%
- OCC1CCCN1c1ncnc2ccc(F)cc12 (stereo not given) : -2.222%
- CCN(CC1CCOC1)C(=O)c1cc(I)c[nH]1 (stereo not given) : 71.11%
- CCOc1cccc(CS(=O)(=O)Cc2ccnn2C)n1 : 12.98%
- CCOC(C)(C)CNC(=O)NCc1ccncc1 : -7.084%